Reference: PubChem BioAssay AID624099 (ICCB-Longwood, 2012)
Purpose: 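Host factors E2 relies on to silence an HPV18 LCR reporter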 (primary screen). Cell system: human C33A cervical carcinoma cells (HPV-negative) stably expressing BPV1 E2 and an HPV18 LCR luciferase reporter. Knock-down reagent: siRNA pool against human genes, 40 nM. Timing: 72 h. Measured: 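HPV18 LCR reporter light per well, converted to plate-wise z-scores that exclude control wells, and averaged over triplicate plates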. Reading the numbers: mean z-score and z-score: higher = stronger reporter signal, weaker E2 silencing. Hit rule: 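Hit if mean z-score reaches 2 and two or more of three replicate z-scores also reach 2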.
The deposit covers about 21,000 reagents; this is a random part of them. 497 of them (2.4%) were called active. 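Higher z means weaker E2 silencing; only reporter increases were scored, and knock-downs that hurt cell survival may mask genuine repressor factors.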

gene | mean z-score | z-score, replicate A | z-score, replicate B | z-score, replicate C | outcome
ZDHHC6 | 0.72 | 0.63 | 0.37 | 1.15 | inactive
NIPAL4 | 0.93 | 0.93 | 0.83 | 1.01 | inactive
MTMR14 | -0.88 | -0.56 | -1.21 | -0.86 | inactive
LYL1 | 0.62 | 0.32 | 0.58 | 0.97 | inactive
HRK | 0.2 | 0.14 | 0.22 | 0.23 | inactive
EVI5L | 0.21 | 0.29 | 0.21 | 0.12 | inactive
CHID1 | -0.76 | -1 | -0.77 | -0.51 | inactive
DNPEP | 1.22 | 1.31 | 1.2 | 1.15 | inactive
SKIC8 | 0.2 | 0.15 | 0.36 | 0.09 | inactive
VPS50 | 0.23 | 0.41 | -0.01 | 0.3 | inactive
SLC3A1 | -0.88 | -1.19 | -0.96 | -0.48 | inactive
IL17RA | -0.17 | -0.42 | -0.04 | -0.04 | inactive
LILRA2 | -0.31 | -0.22 | -0.37 | -0.33 | inactive
LY9 | 1.37 | 1.29 | 1.31 | 1.52 | inactive
ARID4A | -1.17 | -1.18 | -1.3 | -1.05 | inactive
MTERF3 | -0.75 | -0.72 | -1.08 | -0.46 | inactive
LAMP1 | -0.05 | 0.35 | -0.18 | -0.33 | inactive
FAM41C | 0.55 | 0.4 | 0.55 | 0.7 | inactive
MAP1LC3C | 1.25 | 1.1 | 0.95 | 1.7 | inactive
MROH5 | 0.95 | 0.65 | 1.45 | 0.74 | inactive
NOX4P1 | 1.5 | 1.86 | 1.14 | 1.49 | inactive
EPHX3 | 0.28 | 0.68 | 0.05 | 0.12 | inactive
GCHFR | -1.31 | -1.15 | -1.48 | -1.29 | inactive
SCAF11 | 0.98 | 0.94 | 1.11 | 0.87 | inactive
LOC202025 (retired record) | -1.42 | -1.49 | -1.6 | -1.18 | inactive
LOC283816 (retired record) | -0.09 | -0.02 | -0.52 | 0.26 | inactive
MAGEB6 | 0.17 | 0.32 | -0.06 | 0.26 | inactive
ATP2B2 | -0.22 | -0.06 | -0.32 | -0.27 | inactive
MRPL48 | 0.84 | 0.92 | 0.83 | 0.77 | inactive
ABCG1 | -0.59 | -0.79 | -0.49 | -0.5 | inactive
LST1 | 0.72 | 0.86 | 0.81 | 0.49 | inactive
TAL2 | -0.72 | -0.58 | -0.84 | -0.75 | inactive
PCDHGA6 | -1.31 | -1.68 | -1.31 | -0.93 | inactive
OOSP2 | 1.52 | 1.41 | 1.67 | 1.49 | inactive
CCL21 | -0.23 | -0.12 | -0.35 | -0.22 | inactive
CCDC81 | -0.48 | -1.03 | -0.21 | -0.21 | inactive
PRDX5 | 0.18 | 0.28 | 0.03 | 0.23 | inactive
C11orf16 | -0.44 | -0.4 | -0.55 | -0.38 | inactive
MIIP | 0.78 | 0.51 | 0.84 | 1 | inactive
CYP21A2 | 0.39 | 0.29 | 0.28 | 0.61 | inactive
TMEM154 | -0.67 | -0.73 | -0.39 | -0.88 | inactive
MYL12A | 0.49 | 0.74 | 0.38 | 0.36 | inactive
XKR9 | 0.6 | 0.7 | 0.44 | 0.67 | inactive
ATAD3B | 0.84 | 0.68 | 0.69 | 1.14 | inactive
LOC391807 (retired record) | -0.99 | -1.26 | -0.68 | -1.02 | inactive
CS | -0.06 | -0.23 | -0.16 | 0.19 | inactive
PAAF1 | -0.11 | -0.08 | -0.32 | 0.09 | inactive
CAPN6 | -0.27 | 0 | -0.41 | -0.4 | inactive
KCNQ1DN | 1.27 | 1.22 | 1.1 | 1.51 | inactive
EMC6 | -1.94 | -1.83 | -2.05 | -1.95 | inactive
LOC400921 (retired record) | 0.07 | 0.22 | 0.27 | -0.29 | inactive
N4BP2L1 | -0.79 | -0.71 | -0.84 | -0.82 | inactive
RAB4A | 0.86 | 0.47 | 1.03 | 1.1 | inactive
CNTNAP1 | 0.79 | 0.92 | 0.8 | 0.66 | inactive
LMO2 | -0.01 | 0 | 0.13 | -0.15 | inactive
SCNN1A | -0.47 | -0.58 | -0.23 | -0.59 | inactive
NARS1 | 2.78 | 2.63 | 2.95 | 2.76 | active

Sorted by “mean z-score” (high to low): 7 of the entries above.
gene | mean z-score | z-score, replicate A | z-score, replicate B | z-score, replicate C | outcome
DNPEP | 1.22 | 1.31 | 1.2 | 1.15 | inactive
LYL1 | 0.62 | 0.32 | 0.58 | 0.97 | inactive
EVI5L | 0.21 | 0.29 | 0.21 | 0.12 | inactive
HRK | 0.2 | 0.14 | 0.22 | 0.23 | inactive
SKIC8 | 0.2 | 0.15 | 0.36 | 0.09 | inactive
CHID1 | -0.76 | -1 | -0.77 | -0.51 | inactive
MTMR14 | -0.88 | -0.56 | -1.21 | -0.86 | inactive
